A mixed list of measured activities; the numbers were collected in NIAID ChemDB.

All rows: tests in culture; agent: HIV-1

ECn is the concentration giving n% inhibition of infection, replication or growth. An empty or dashed field is not shown. Lines come from different laboratories, so protocols vary.

C[C@H]1[C@H](OC(=O)N[C@@H](CSc2ccccc2)[C@H](O)CN2C[C@H]3CCS[C@H]3C[C@H]2C(=O)NC(C)(C)C)CCS1(=O)=O ; cells: CEM + CEM-SS ; strain: HXB2 ; method: cytopathic effect / XTT ; endpoint: EC50 ; result: <0.044 µM
Cc1cc(C#N)cc(C)c1Oc1nc(NC2CCC(NCc3ccc(Br)cc3)CC2)nc2ccsc12 ; cells: MT-4 ; strain: IIIB ; method: MTT ; mutations: NNRTI-resistant (RT F227L V106A) ; endpoint: EC50 ; result: >3.45 µM
CC(C)[C@H]1[C@@H](OC(=O)N[C@@H](CSc2ccccc2)[C@H](O)CN2C[C@H]3CCS[C@H]3C[C@H]2C(=O)NC(C)(C)C)CCS1(=O)=O ; cells: CEM + CEM-SS ; strain: HXB2 ; method: cytopathic effect / XTT ; endpoint: EC50 ; result: <0.089 µM
CC(C)(C)n1cc(C(=O)O)c(=O)c2cc(I)c(Oc3ccnc(Nc4ccc(C#N)cc4)n3)cc21 ; cells: MT-4 ; strain: IIIB ; method: MTT ; mutations: K103N Y181C NNRTI-resistant ; endpoint: EC50 ; result: 4.73 µM
C[C@@H]1OCC[C@@H]1OC(=O)N[C@@H](CSc1ccccc1)[C@H](O)CN1C[C@H]2CCS[C@H]2C[C@H]1C(=O)NC(C)(C)C ; cells: CEM + CEM-SS ; strain: HXB2 ; method: cytopathic effect / XTT ; endpoint: EC50 ; result: <0.162 µM
O=C(O)/C=C/c1cc(C(=O)O)c(O)c2nc(/C=C/c3ccc(O)c(O)c3)ccc12 ; cells: HeLaP4 ; method: β-galactosidase ; endpoint: EC50 ; result: 35 µM
C[C@@H]1[C@@H](OC(=O)N[C@@H](CSc2ccccc2)[C@H](O)CN2C[C@H]3CCS[C@H]3C[C@H]2C(=O)NC(C)(C)C)CCS1(=O)=O ; cells: CEM + CEM-SS ; strain: HXB2 ; method: cytopathic effect / XTT ; endpoint: EC50 ; result: <0.045 µM
Cc1cn([C@H]2C[C@H](N=[N+]=[N-])[C@@H](COC(=O)CCOCCCCCCCCCl)O2)c(=O)[nH]c1=O ; cells: CEM + CEM-SS ; strain: IIIB ; endpoint: EC50 ; result: 0.082 µM
Cc1cn([C@H]2C[C@H](N=[N+]=[N-])[C@@H](CO)O2)c(=O)[nH]c1=O ; cells: MT-4 ; strain: IIIB ; method: MTT ; endpoint: EC50 ; result: 0.0056 µM
CC(C)[C@H]1[C@@H](OC(=O)N[C@@H](Cc2ccccc2)[C@H](O)CN2C[C@H]3CCCC[C@H]3C[C@H]2C(=O)NC(C)(C)C)CCS1(=O)=O ; cells: CEM + CEM-SS ; strain: HXB2 ; method: cytopathic effect / XTT ; endpoint: EC50 ; result: <0.273 µM
Cc1cn([C@H]2C[C@H](N=[N+]=[N-])[C@@H](CO)O2)c(=O)[nH]c1=O ; cells: HT4 + HeLa ; strain: G890-1 Clinical isolate ZDV-resistant ; method: syncytia ; mutations: RT-K20R M41L D67N T69N K70R L210W T215Y ; endpoint: EC50 ; result: 3.6 µM
CCCCn1cc(C(=O)O)c(=O)c2cc(Br)c(Oc3ccnc(Nc4ccc(C#N)cc4)n3)cc21 ; cells: MT-4 ; strain: IIIB ; method: MTT ; endpoint: EC50 ; result: 0.018 µM
C1CNCCNCC(CCOCCOCCC2CNCCNCCCNCCNC2)CNCCNC1 ; cells: MT-4 ; strain: IIIB ; method: cytopathic effect / MTT ; conditions: 4 d ; endpoint: EC50 ; result: 3.2 µM
Cc1cn([C@H]2C[C@H](N=[N+]=[N-])[C@@H](COC(=O)CCCCCCCCCCCc3ccccc3)O2)c(=O)[nH]c1=O ; cells: CEM + CEM-SS ; strain: IIIB ; endpoint: EC50 ; result: 0.1055 µM
CC(C)[C@@H]1[C@H](OC(=O)N[C@@H](CSc2ccccc2)[C@H](O)CN2C[C@H]3CCS[C@H]3C[C@H]2C(=O)NC(C)(C)C)CCS1(=O)=O ; cells: CEM + CEM-SS ; strain: HXB2 ; method: cytopathic effect / XTT ; endpoint: EC50 ; result: <0.009 µM
Cc1c(Sc2ccccc2)n(COCCO)c(=O)[nH]c1=O ; cells: MT-4 ; strain: RF ; method: cytopathic effect / MTT ; endpoint: EC50 ; result: 12 µM
Cc1cn([C@H]2C[C@H](N=[N+]=[N-])[C@@H](CO)O2)c(=O)[nH]c1=O ; cells: PBMC ; strain: 1495-2 (RT K70R T215Y/F) NRTI resistant ; method: p24 ; mutations: RT-K70R T215Y/F ; endpoint: EC50 ; result: 0.0294 µM
C1CNCCNCCNCCNCCN1 ; cells: MT-4 ; strain: IIIB ; method: cytopathic effect / MTT ; endpoint: EC50 ; result: >8.3 µM
Oc1ccc(/C=C/c2cc(O)cc3c2[C@@H](c2cc(O)cc(O)c2)[C@H](c2ccc(O)c(O)c2)O3)cc1 ; strain: IIIB ; endpoint: EC50 ; result: 10 µg/mL
Cc1ccnc2c1NC(=O)c1cccnc1N2C1CC1 ; cells: CEM + CEM-SS ; strain: NL4-3 ; method: cytopathic effect / XTT ; mutations: RT-K103N ; endpoint: EC50 ; result: >2 µM
Cc1cc(C#N)cc(C)c1Oc1nc(Nc2ccc(C#N)cc2)nc(N)c1Br ; cells: MT-4 ; strain: IIIB ; method: MTT ; mutations: NNRTI-resistant (RT K103N) ; endpoint: EC50 ; result: 0.00235 µM
Cc1ccnc2c1NC(=O)c1cccnc1N2C1CC1 ; cells: MAGI ; strain: NNRTI-resistant (RT V108I Y181C) ; method: β-galactosidase ; mutations: RT-V108I Y181C ; endpoint: EC50 ; result: >10 µM
COCCCCCCCCCCCC(=O)OC[C@H]1O[C@@H](n2cc(C)c(=O)[nH]c2=O)C[C@@H]1N=[N+]=[N-] ; cells: CEM + CEM-SS ; strain: IIIB ; endpoint: EC50 ; result: 0.0306 µM
N#Cc1ccc(Nc2nccc(Oc3cc4c(cc3Br)c(=O)c(C(=O)O)cn4C3CCCCC3)n2)cc1 ; cells: MT-4 ; strain: IIIB ; method: MTT ; endpoint: EC50 ; result: 0.77 µM
Cc1cn([C@H]2C[C@H](N=[N+]=[N-])[C@@H](CO)O2)c(=O)[nH]c1=O ; cells: PBMC (PHA stimulated) + PBMC ; strain: LAI ; method: RT activity ; endpoint: EC50 ; result: 0.003 µM
CCCCn1cc(C(=O)O)c(=O)c2cc(I)c(Oc3ccnc(Nc4ccc(C#N)cc4)n3)cc21 ; cells: MT-4 ; strain: IIIB ; method: MTT ; mutations: K103N Y181C NNRTI-resistant ; endpoint: EC50 ; result: 0.98 µM
C1CNCCNCC(CCC2CNCCNCCCNCCNC2)CNCCNC1 ; cells: MT-4 ; strain: RF ; method: cytopathic effect / MTT ; conditions: 4 d ; endpoint: EC50 ; result: 0.72 µM
Cc1ccnc2c1NC(=O)c1cccnc1N2C1CC1 ; cells: PBMC ; strain: IIIB ; method: p24 ; endpoint: EC90 ; result: 1.095 µM
C1CNCCNCC(CCCC2CNCCNCCCNCCNC2)CNCCNC1 ; cells: MT-4 ; strain: RF ; method: cytopathic effect / MTT ; conditions: 5 d ; endpoint: EC50 ; result: 0.14 µM
CC(C)n1cc(C(=O)O)c(=O)c2cc(Br)c(Oc3ccnc(Nc4ccc(C#N)cc4)n3)cc21 ; cells: MT-4 ; strain: IIIB ; method: MTT ; endpoint: EC50 ; result: 0.088 µM
Cc1cc(C#N)cc(C)c1Oc1nc(NC2CCN(Cc3cccc(C(N)=O)c3)CC2)nc2sccc12 ; cells: MT-4 ; strain: IIIB ; method: MTT ; mutations: NNRTI-resistant (RT F227L V106A) ; endpoint: EC50 ; result: 0.0252 µM
C(CCC1CNCCNCCCNCCNC1)CCC1CNCCNCCCNCCNC1 ; cells: MT-4 ; strain: IIIB ; method: cytopathic effect / MTT ; conditions: 5 d ; endpoint: EC50 ; result: 0.67 µM
CCCCC[C@H](O)/C=C/[C@H]1C(=O)C=C[C@@H]1C/C=C\CCCC(=O)O ; cells: CEM + CEM-SS ; strain: IIIB ; method: p24 ; endpoint: EC50 ; result: 1 µg/mL
COCCCCCCCCCCC(=O)OC[C@H]1O[C@@H](n2cc(C)c(=O)[nH]c2=O)C[C@@H]1N=[N+]=[N-] ; cells: CEM + CEM-SS ; strain: IIIB ; endpoint: EC50 ; result: 0.0088 µM
Cc1cn([C@H]2C[C@H](N=[N+]=[N-])[C@@H](CO)O2)c(=O)[nH]c1=O ; cells: MT-4 ; strain: IIIB ; method: MTT ; mutations: NNRTI-resistant (RT Y188L) ; endpoint: EC50 ; result: 0.00634 µM
Cc1cn([C@H]2C[C@H](N=[N+]=[N-])[C@@H](COC(=O)CCCCCCCCCCCCl)O2)c(=O)[nH]c1=O ; cells: CEM + CEM-SS ; strain: IIIB ; endpoint: EC50 ; result: 0.185 µM
Cc1cn([C@H]2C[C@H](N=[N+]=[N-])[C@@H](CO)O2)c(=O)[nH]c1=O ; cells: CEM + CEM-SS ; strain: NL4-3 ; method: cytopathic effect / XTT ; mutations: RT-L100I ; endpoint: EC50 ; result: 0.003 µM

Repeating the final 3 entries:

smiles	cells	strain	method	conditions	mutations	endpoint	result
Cc1cn([C@H]2C[C@H](N=[N+]=[N-])[C@@H](CO)O2)c(=O)[nH]c1=O	MT-4	IIIB	MTT		NNRTI-resistant (RT Y188L)	EC50	0.00634 µM
Cc1cn([C@H]2C[C@H](N=[N+]=[N-])[C@@H](COC(=O)CCCCCCCCCCCCl)O2)c(=O)[nH]c1=O	CEM + CEM-SS	IIIB				EC50	0.185 µM
Cc1cn([C@H]2C[C@H](N=[N+]=[N-])[C@@H](CO)O2)c(=O)[nH]c1=O	CEM + CEM-SS	NL4-3	cytopathic effect / XTT		RT-L100I	EC50	0.003 µM